According to patent USRE39021E1, “Hydantoin-enhanced halogen efficacy in pulp and paper applications” (Lonza Inc., priority 1994, dated 2006):

Assay: Example 6: effluent AOX analyses of treated pulp slurry

Structure (SMILES): [Na+].[O-]Cl [NaOCl, sodium hypochlorite]
- Effluent AOX (initial total halogen 74 ppm as Cl2, pulp slurry effluent): 5.8 ppm

Structure (SMILES): CC1(C)NC(=O)NC1=O [DMH, 5,5-dimethylhydantoin]
- reduction of AOX of NaOCl-treated pulp slurry effluent (about 70 ppm as Cl2 initial total halogen, Example 6): 36%
